Compound potency records, mixed from different reports. Data source: NIAID ChemDB in PubChem.

Shared fields: target-level tests; species: HIV-1; target: Integrase; read-out: IC50

ICn is the concentration giving n% inhibition.

compound,method,value
O=C(/C=C(\O)c1ccc(Cc2ccc(F)cc2)o1)c1ccco1,strand transfer,>100 µg/mL
O=C(O)/C(O)=C/C(=O)n1c(=O)n(Cc2ccccc2)c(=O)n1Cc1ccccc1,3′ processing,17 µM
O=C1c2c(O)c(=O)c(-c3ccccn3)cn2CCN1CCCc1cccc(Cl)c1F,ELISA,0.01–0.1 µM
O/C(=C\c1cc(CCc2ccccc2)ncn1)c1nncs1,strand transfer,0.6 µg/mL
CS(=O)(=O)CCNC(=O)c1cn2ccn(Cc3cccc(Cl)c3)c(=O)c2c(O)c1=O,ELISA,0.01–0.1 µM
Cc1cc2c(c3c1[nH]c1cc(Cl)c(O)cc13)C(=O)N(CCN(C)C)C2=O,strand transfer,>100 µM
O=C(NCc1ccccc1F)c1cn2c(c(O)c1=O)C(=O)N(Cc1ccc(F)cc1)CC2,ELISA,<0.01 µM
Cc1cc2c(c3c1[nH]c1ccc(O)cc13)C(=O)N(CCN(C)C)C2=O,strand transfer,>100 µM
COc1cc2c(c(O)c1O)C1(C)Oc3c(O)c(OC)cc(C=O)c3C(C)(O1)C2=O,strand transfer,2.5 µM
CC(=O)Nc1cn2c(C)cn(Cc3cccc(Cl)c3)c(=O)c2c(O)c1=O,ELISA,0.01–0.1 µM
O=C(O)C(=O)/C=C(\O)c1cn(-c2ccccc2)c(=O)n(-c2ccc(F)cc2)c1=O,strand transfer,<0.6 µM
CN(C)CCCNC(=O)c1cc(NC(=O)c2cc(NC(=O)c3cc(NC(=O)CCNC(=O)c4cc(NC(=O)c5cc(NC(=O)c6cc(NC(=O)CCCN)cn6C)cn5C)cn4C)cn3C)cn2C)cn1C,3′ processing,1.4 µM
O=C(O)C(=O)/C=C(\O)c1cn(-c2ccc(C(F)(F)F)cc2)c(=O)n(-c2ccc(C(F)(F)F)cc2)c1=O,strand transfer,6.6 µM
CC(=O)N(C)c1cn2ccn(Cc3cccc(Cl)c3)c(=O)c2c(O)c1=O,ELISA,<0.01 µM
CCOC(=O)c1cccc(N=Nc2c(S(=O)(=O)O)cc3cc(NC(=O)Nc4ccc5c(O)c(N=Nc6cccc(C(=O)OCC)c6)c(S(=O)(=O)O)cc5c4)ccc3c2O)c1,strand transfer,4 µM
Cn1cc(NC(=O)c2cc(NC(=O)c3cc(NC=O)cn3C)cn2C)cc1C(=O)NCCC(=N)N,3′ processing,3.5 µM
CCOC(=O)C(Cc1ccccc1)c1ccc(N2C(=O)C(c3ccc(C(=O)O)o3)=C(c3ccc(C(=O)O)o3)C2=O)cc1,strand transfer,9 µM
CC(C)(C)C(=O)Cc1c(C(=O)C(C)(C)C)c(=O)c(O)c2n1CCN(Cc1ccc(F)cc1)C2=O,ELISA,0.01–0.1 µM
CCOC(=O)c1nc(NC(=O)c2nc(NC(=O)c3cc(NC(=O)c4cc(NC(=O)CCCN)cn4C)cn3C)cn2C)cn1C,3′ processing,4.2 µM
O=C(O)C(=O)/C=C(\O)c1cn(-c2ccccc2)c(=O)[nH]c1=O,strand transfer,0.5 µM
O=C(O)CC(C(=O)O)c1ccc(N=Nc2c(S(=O)(=O)O)cc3cc(NC(=O)Nc4ccc5c(O)c(N=Nc6ccc(C(CC(=O)O)C(=O)O)cc6)c(S(=O)(=O)O)cc5c4)ccc3c2O)cc1,3′ processing,0.3 µM
O=C(/C=C(\O)c1ncccc1C(=O)O)c1ccc(Cc2ccc(F)cc2)o1,strand transfer,>10 µg/mL
O=CCCc1ccc(C2=C(c3ccc(CCC=O)o3)C(=O)N(Cc3ccccc3)C2=O)o1,strand transfer,5.5 µM
CC(C)(C)Cc1cn2ccn(Cc3cccc(Cl)c3)c(=O)c2c(O)c1=O,ELISA,0.01–0.1 µM
Cn1cc(C(=O)O)c(=O)c2cc(N)c(N3CCN(c4ccccn4)CC3)cc21,3′ processing,60 µM
CN(C)C(=O)c1cn2ccn(Cc3ccc(F)c(Cl)c3)c(=O)c2c(O)c1=O,ELISA,<0.01 µM
O=C(NCCO)c1c(O)c2ncc(Cc3ccc(F)cc3)cc2n(-c2ccc(F)cc2)c1=O,strand transfer,0.0074 µM
O=C(O)CCc1ccc(N=Nc2c(S(=O)(=O)O)cc3cc(NC(=O)Nc4ccc5c(O)c(N=Nc6ccc(CCC(=O)O)cc6)c(S(=O)(=O)O)cc5c4)ccc3c2O)cc1,strand transfer,1 µM
CN(C)CCN1C(=O)c2ccc3[nH]c4cc(O)c(O)cc4c3c2C1=O,strand transfer,>100 µM
O=C(Nc1ccc2c(O)c(N=Nc3ccc(C(=O)O)cc3)c(S(=O)(=O)O)cc2c1)C(=O)Nc1ccc2c(O)c(N=Nc3ccc(C(=O)O)cc3)c(S(=O)(=O)O)cc2c1,3′ processing,3 µM
COC(=O)c1cc(NC(=O)c2cc(NC(=O)c3cc(NC(=O)c4nc(NC(=O)CCCN)cn4C)cn3C)cn2C)cn1C,3′ processing,55 µM

Repeating the first 5 entries:

{"compound": "O=C(/C=C(\\O)c1ccc(Cc2ccc(F)cc2)o1)c1ccco1", "method": "strand transfer", "value": ">100 µg/mL"}
{"compound": "O=C(O)/C(O)=C/C(=O)n1c(=O)n(Cc2ccccc2)c(=O)n1Cc1ccccc1", "method": "3′ processing", "value": "17 µM"}
{"compound": "O=C1c2c(O)c(=O)c(-c3ccccn3)cn2CCN1CCCc1cccc(Cl)c1F", "method": "ELISA", "value": "0.01–0.1 µM"}
{"compound": "O/C(=C\\c1cc(CCc2ccccc2)ncn1)c1nncs1", "method": "strand transfer", "value": "0.6 µg/mL"}
{"compound": "CS(=O)(=O)CCNC(=O)c1cn2ccn(Cc3cccc(Cl)c3)c(=O)c2c(O)c1=O", "method": "ELISA", "value": "0.01–0.1 µM"}

Rows are shuffled and stem from different studies. a–b is a range or a potency band.